What is called Kd is a measure of binding affinity in units of concentration.

Assay [1] concerns the target IpaD^WT (full-length) (Shigella flexneri, UniProt P18013, DEL149-149). Particulars: read-out: Kd (μM ± SD) ^a; labelled compound (25 nM FITC-DOC); PBS pH 7.4, 25 °C; single-site model.
The target of assay [2] is IpaD^WT (full-length) (Shigella flexneri, UniProt P18013). The experiment in a line: fluorescence polarization, direct titration. The class given is binding. Particulars: labelled compound (25 nM FITC-DOC); PBS pH 7.4, 25 °C; single-site model; read-out: Kd (μM ± SD) ^a. The text has this: fluorescence polarization, direct titration on IpaD^WT (full-length)
In general terms: In fluorescence polarisation assays a small probe gives low polarisation when free and higher when bound to something large.

For assay [3], the target named is IpaD^WT (full-length) (Shigella flexneri, UniProt P18013, DEL148-148). Particulars: read-out: Kd (μM ± SD) ^a; labelled compound (25 nM FITC-DOC); PBS pH 7.4, 25 °C; single-site model.

For FITC-DOC, the equilibrium dissociation constant (Kd) at IpaD^WT (full-length) [1] turned out to be 5.2 ± 1 µM; on IpaD^WT (full-length) [2], 4.7 ± 1 µM; on IpaD^WT (full-length) [3], 4.9 ± 1 µM.

The record behind these values is publication PMC11400957, “Structural and functional characterization of the IpaD π-helix reveals critical roles in DOC interaction, T3SS apparatus maturation, and Shigella virulence” (The Journal of Biological Chemistry, 2024).
